Compound potency records, mixed from different reports. Data source: NIAID ChemDB in PubChem.

Common to all: whole-cell or culture tests; organism: HIV-1; cells: CEM; read-out: EC50

a–b is a range or a potency band.

structure | strain or isolate | method | result
O=C1C(=O)c2ccccc2C(O)=C1C1=C(Br)C(=O)c2ccccc2C1=O | IIIB | cytopathic effect / MTT | 2.3 µM
O=C1c2sc(-c3ccccc3)cc2N(COCCO)S(=O)(=O)N1Cc1ccccc1 | - | - | >400 µg/mL
CC(C)CN(CC(O)CNC1c2ccccc2CC1O)S(=O)(=O)c1ccccc1 | IIIB | p24 | <1 µM
Cc1cc2c(cc1Cl)SC(C(=O)c1ccc(Cl)cc1)=NS2(=O)=O | - | cytopathic effect / XTT | >159 µM
Nc1cc(OC[C@H](CO)OCP(=O)(O)O)nc(N)n1 | IIIB | syncytia | ≥14 µM
NC1=C(C2=C(N)C(=O)c3ccccc3C2=O)C(=O)c2ccccc2C1=O | IIIB | cytopathic effect / MTT | 0.7 µM
COc1ccc(S(=O)(=O)N(CC2CCCC2)C[C@@H](O)CN(CC(C)C)C(=O)O[C@H]2CCOC2)cc1 | IIIB | p24 | <1 µM
Cc1cc2c(cc1Cl)SC(C(=O)c1ccc3ccccc3c1)=NS2(=O)=O | - | cytopathic effect / XTT | >200 µM
N#CC1=C(N)N2C(=C(C#N)C1c1ccc(Cl)cc1)Oc1ccccc12 | - | cytopathic effect / XTT | 36.7 µM
Nc1nc2c(ncn2COCCO)c(=O)[nH]1 | - | - | >400 µg/mL
C=C(C)[C@@H]1CC[C@]2(C(=O)NCCCCCCCC(=O)N[C@@H](CC(C)C)[C@@H](O)CC(=O)O)CC[C@]3(C)[C@H](CC[C@@H]4[C@@]5(C)CC[C@H](O)C(C)(C)[C@@H]5CC[C@]43C)[C@@H]12 | LAI | cytopathic effect / MTT | 0.05 µM
COc1ccc2c(c1)C(O)=C(C1=C(Cl)C(=O)c3ccccc3C1=O)C(=O)C2=O | IIIB | cytopathic effect / MTT | 2.7 µM
O=C1c2cc(-c3ccccc3)sc2N(Cc2ccccc2)S(=O)(=O)N1CCOCCO | - | - | >400 µg/mL
COc1ccc(C(=O)C2=NS(=O)(=O)c3cc(C)c(Cl)cc3S2)cc1 | - | cytopathic effect / XTT | 205.8 µM
Nc1ccc([C@H]2C[C@H](O)[C@@H](CO)O2)c(F)c1 | - | - | >250 µM
Cc1cc2c(cc1Cl)SC(C(=O)c1ccc(Cl)c(Cl)c1)=NS2(=O)=O | - | cytopathic effect / XTT | >200 µM
O=C(O[C@H]1CCOC1)N(Cc1ccccc1)CC(O)CN(CC1CCCC1)S(=O)(=O)c1ccccc1 | IIIB | p24 | <1 µM
N#CC1CCCN1C(=O)C(Cc1ccccc1)NC(=O)OCC1c2ccccc2-c2ccccc21 | IIIB | p24 | >12 µM
Nc1nc(N)n(CCOCP(=O)(O)O)c(=O)c1CC(=O)O | IIIB | syncytia | ≥300 µM
CC(=O)OCCOCCN1C(=O)c2cc(-c3ccccc3)sc2N(Cc2ccccc2)S1(=O)=O | - | - | >400 µg/mL
COC1=C(C2=C(C3=C(O)C(=O)c4ccccc4C3=O)C(=O)c3ccccc3C2=O)C(=O)c2ccccc2C1=O | IIIB | cytopathic effect / MTT | 43.3 µM
N#CCc1c(N)nc(N)n(CCOCP(=O)(O)O)c1=O | IIIB | syncytia | ≥300 µM
Cc1cn([C@@H]2CC[C@H](COC(=O)CCCCCCCCCCC(=O)OC[C@H]3O[C@@H](n4cc(C)c(=O)[nH]c4=O)C[C@@H]3N=[N+]=[N-])O2)c(=O)[nH]c1=O | IIIB | - | 0.004 µM
CC(C)CN(C[C@@H](O)[C@H](Cc1ccccc1)NC(=O)O[C@H]1CCOC1)S(=O)(=O)c1ccc(N)cc1 | IIIB | p24 | 0.177 µM
C[C@]1(CO)[C@H](Cn2cnc3c(=O)[nH]c(N)nc32)C1(F)F | RF | - | >100 µM
N#CC1=C(N)N2C(=C(C#N)C1c1ccccc1)Oc1ccccc12 | - | cytopathic effect / XTT | >200 µM
Cc1cn([C@@H]2CC[C@H](COC(=O)CCCCCCCCCCCCC(=O)OC[C@H]3O[C@@H](n4cc(C)c(=O)[nH]c4=O)C[C@@H]3N=[N+]=[N-])O2)c(=O)[nH]c1=O | IIIB | - | 0.003 µM
Nc1nc(N)c(CC(=O)O)c(OCCOCP(=O)(O)O)n1 | IIIB | syncytia | ≥300 µM
O=C1CS/C(=C/c2nc3ccccc3o2)N1 | - | cytopathic effect / XTT | 4.02 µM
O=C(O[C@H]1CCOC1)N(CCc1ccccc1)C[C@H](O)CN(CC1CCCC1)S(=O)(=O)c1ccc(O)cc1 | IIIB | p24 | <0.1 µM
COCCCCCCCCCCCC(=O)O | - | cytopathic effect / MTT | 1–5 µM
C[C@]1(Cn2cnc3c(=O)[nH]c(N)nc32)[C@@H](COCP(=O)(O)O)C1(F)F | RF | - | 2.4 µM
Cc1cccc(N2C(=O)CSC2c2c(C(F)(F)F)ccc(Cl)c2F)n1 | IIIB | syncytia | 1.15 µM
Nc1nc2c(ncn2COC(CO)CO)c(=O)[nH]1 | - | - | >400 µg/mL
COc1ccc(S(=O)(=O)N(Cc2ccccc2)CC(F)(F)C(=O)[C@@H](Cc2ccccc2)NC(=O)OC2COCOC2)cc1 | IIIB | p24 | <1 µM
COc1cccc(F)c1C1SCC(=O)N1c1cc(C)cc(C)n1 | IIIB | syncytia | 0.391 µM
Nc1nc2c(ncn2[C@H]2C=C[C@@H](CO)C2)c(=O)[nH]1 | IIIB | cytopathic effect / XTT | 0.66 µg/mL
Cc1cc(Cl)cc2c1S(=O)(=O)N=C(C(=O)c1ccc(Cl)c(Cl)c1)S2 | - | cytopathic effect / XTT | >200 µM
NC(=O)CCNC(=O)c1ccccc1S | RF | cytopathic effect / XTT | 2.3 µM
COC1=C(C2=C(Cl)C(=O)c3ccccc3C2=O)C(=O)c2ccc3c(c2C1=O)C=CC(C)(C)O3 | IIIB | cytopathic effect / MTT | 1.8 µM
COc1cccc(F)c1C1SCC(=O)N1c1nccc(C)n1 | IIIB | syncytia | 0.469 µM
Cc1cc(Cl)cc2c1S(=O)(=O)N=C(C(=O)c1ccc3ccccc3c1)S2 | - | cytopathic effect / XTT | >200 µM
O=C(c1ccccc1)N(CCc1ccccc1)C[C@H](O)CN(CC1CCCC1)S(=O)(=O)c1ccccn1 | IIIB | p24 | <1 µM
N#CC(C(=S)NCc1ccc(Cl)cc1)c1nc2ccccc2o1 | - | cytopathic effect / XTT | 36.9 µM

Neighbouring rows are from separate reports. ECn: concentration that inhibits the pathogen or its effect by n%. An empty or dashed field is not shown.